Certain results were filed several times, with different values. This list holds those alone. An entry can have further records. Values that stand side by side differ, and nothing given here explains why; dose, time, organism, isomer or construct need not be as stated for each record.
Target: IMPα/β1:C (Mus musculus, UniProt P52293)
Assay: AlphaScreen IMPα/β1:C binding assay
Conditions: read-out: IC50 ± SD, 15 nM IMPα/β1, 30 nM capsid

CC(=O)Nc1ccc(S(=O)(=O)Nc2ccc(C3(c4ccc(NS(=O)(=O)c5ccc(NC(C)=O)cc5)cc4)c4ccccc4-c4ccccc43)cc2)cc1 [AN-329/40863801]
IC50: < 12 µM and 5.2 µM

— article PMC5735092 (Scientific Reports, 2017)
